The values below come from PMC9611977 (Toxins, 2022).

Experiment [1] has as its system human α7 nAChR. In words: radioligand competition assay with [125I]-αBgt, GH4C1 cells transfected with human α7 nAChR. The conditions noted are these: purified toxin at 40 μM; average of three measurements.
Experiment [2] concerns muscle-type T. californica nAChR (α1β1γδ). In words: radioligand competition assay with [125I]-αBgt, T. californica electric organ membranes. Conditions: purified toxin at 20 μM; average of three measurements. Background: Displacement assays read how much labelled ligand stays bound in the presence of the test substance.

Turning to `CC[C@H](C)[C@@H]1NC(=O)[C@H](CCSC)NC(=O)[C@H](Cc2ccccc2)NC(=O)[C@H](Cc2c[nH]c3ccccc23)NC(=O)[C@H](Cc2ccc(O)cc2)NC(=O)[C@H](C(C)C)NC(=O)CNC(=O)[C@H]([C@@H](C)O)NC(=O)[C@H](Cc2ccc(O)cc2)NC(=O)CNC(=O)[C@H](CC(C)C)NC(=O)[C@@H]2CSSC[C@@H]3NC(=O)[C@H](CO)NC(=O)[C@H](CC(C)C)NC(=O)[C@H](CC(N)=O)NC(=O)[C@H](Cc4ccc(O)cc4)NC(=O)CNC(=O)[C@H](Cc4c[nH]cn4)NC(=O)CNC(=O)[C@H](CC(N)=O)NC(=O)[C@@H]4CCCN4C(=O)[C@H](CSSC[C@@H](C(=O)N[C@H](C(=O)N[C@@H](CCCCN)C(=O)N[C@@H](CCCCN)C(=O)O)C(C)C)NC(=O)[C@H](CSSC[C@H](NC(=O)[C@@H]4CCCN4C(=O)[C@@H](NC(=O)CN)[C@@H](C)O)C(=O)N[C@@H](CCCCN)C(=O)N2)NC(=O)[C@H](C(C)C)NC(=O)CNC(=O)[C@H](CC(C)C)NC(=O)[C@H](Cc2ccccc2)NC(=O)[C@H](Cc2ccc(O)cc2)NC(=O)[C@@H]2CCCN2C3=O)NC(=O)[C@H](CCCNC(=N)N)NC(=O)[C@H]([C@@H](C)O)NC1=O` [Hmg 1b-5], the “inhibition of [125I]-αBgt binding to human α7 nAChR” value in experiment [1] is listed as 38–40%. For the same molecule, the “inhibition of [125I]-αBgt binding to muscle-type T. californica nAChR” value in experiment [2] is on record as 50–55%.
